A mixed list of measured activities; the numbers were collected in NIAID ChemDB.

All rows: growth or infection tests; organism: Mycobacterium abscessus

Two numbers with a dash give a range or band.

smiles,endpoint,method,strain or isolate,value
CCNC(=O)c1c(NC(=O)c2c(F)c(F)c(F)c(F)c2F)sc2c1CCN(CC)C2,EC90,resazurin / turbidity,bolletii 103,>200 µM
CCCCCCCCCCCCC(CCCCCCCCCCCC)NC(=O)NC(CCC(=O)O)(CCC(=O)O)CCC(=O)O,MIC,-,AAy-P-1,72 µg/mL
CCN1CCc2c(sc(NC(=O)c3c(F)c(F)c(F)c(F)c3F)c2C(N)=O)C1,EC50,resazurin / turbidity,bolletii 103,>200 µM
CO[C@H]1/C=C/O[C@@]2(C)Oc3c(C)c(O)c4c(O)c(cc(O)c4c3C2=O)NC(=O)/C(C)=C\C=C\[C@H](C)[C@H](O)[C@@H](C)[C@@H](O)[C@@H](C)[C@H](OC(C)=O)[C@@H]1C,MIC,-,AAy-P-1,25 µg/mL
C[C@@H](O)[C@H]1C(=O)N2C(C(=O)O)=C(SC3CN(C4=NCCS4)C3)S[C@H]12,MIC,visual reading,L948,2 µg/mL
CCCCCCCCCCCCCCCCCCCCCCCOC(=O)NC(CCC(=O)O)(CCC(=O)O)CCC(=O)O,MIC,-,AAy-P-1,576 µg/mL
NCCS,MIC100,broth dilution / visual reading,Clinical isolate MR313367D,62.5–125 µg/mL
CCCCCCCCCC(CCCCCCCCC)OC(=O)NC(CCC(=O)O)(CCC(=O)O)CCC(=O)O,MIC,-,AAy-P-1,144 µg/mL
CC(C)N=c1cc2n(-c3ccc(Cl)cc3)c3ccccc3nc-2cc1Nc1ccc(Cl)cc1,MIC90,broth dilution,Clinical isolate,1 µg/mL
CCOC(=O)c1c(NC(=O)c2c(F)c(F)c(F)c(F)c2F)sc2c1CCNC2,MIC,resazurin,-,1.7 µM
CCCCCCCCCCCN(CCCCCCCCCCC)C(=O)NC(CCC(=O)O)(CCC(=O)O)CCC(=O)O,MIC,-,AAy-P-1,72 µg/mL
CCN1CCc2c(sc(NC(=O)c3c(F)c(F)c(F)c(F)c3F)c2C(=O)NC)C1,EC90,resazurin / turbidity,bolletii 103,>100 µM
CC(C)N=c1cc2n(-c3ccc(Cl)cc3)c3ccccc3nc-2cc1Nc1ccc(Cl)cc1,MIC,broth dilution,CIP 104536,0.5 µg/mL
CCN1CCC[C@H]1SC1=C(C(=O)O)N2C(=O)[C@H]([C@@H](C)O)[C@H]2S1,MIC,visual reading,L948,4 µg/mL
NC(=O)c1c(NC(=O)c2c(F)c(F)c(F)c(F)c2F)sc2c1CCOC2,EC90,turbidity,-,86 µM

The last 2 rows once more:

smiles | endpoint | method | strain or isolate | value
CCN1CCC[C@H]1SC1=C(C(=O)O)N2C(=O)[C@H]([C@@H](C)O)[C@H]2S1 | MIC | visual reading | L948 | 4 µg/mL
NC(=O)c1c(NC(=O)c2c(F)c(F)c(F)c(F)c2F)sc2c1CCOC2 | EC90 | turbidity | - | 86 µM

Conditions beyond the fields shown may differ between rows. An empty or dashed field is not shown. ECn is the concentration giving n% inhibition of infection, replication or growth. A number after MIC or MFC names an inhibition level or a share of isolates.